Measured values from several laboratories, pooled; numbers as filed in NIAID ChemDB.

Shared fields: whole-cell or culture tests; organism: Aspergillus niger; method: broth dilution; measure: MIC

An empty or dashed field is not shown. Lines come from different laboratories, so protocols vary.

compound,strain or isolate,conditions,result
COC(=O)c1c(N)oc2ccc(O)cc12,KCTC 1231,-,25 µg/mL
Cc1ccc(N2NOC(=O)C2S(=O)(=O)Nc2ccc(-n3c(-c4ccccc4Cl)nc4ccccc4c3=O)cc2)cc1,MTCC 282,-,500 µg/mL
O=C(COc1cccc(F)c1)c1ccccc1,ATCC 16404,48 h,>125 µg/mL
CCCCCCCCCCCCCCCC(=O)NC(CCCN)C(=O)NC(CCCN)C(=O)NC(CCCN)C(=O)NC(CCCN)C(=O)NC(CCCN)C(N)=O,ATCC 64028,-,1.5 µg/mL
Nc1[nH]c(=O)ncc1F,KCTC 1231,-,25 µg/mL
CC(=O)OC12CCC(C(=O)C1)C1C(=O)N(CCCCN3CCN(c4ccccc4O)CC3)C(=O)C12,DSM 1988,-,>100 µM
CCCCCCCCCCCC(=O)NC(CCCN)C(=O)NC(CCCN)C(=O)NC(CCCN)C(=O)NC(CCCN)C(=O)NC(CCCN)C(N)=O,ATCC 64028,-,12.5 µg/mL
COc1ccccc1N1CCN(CCCN2C(=O)C3C4CCC(OC(C)=O)(CC4=O)C3C2=O)CC1,DSM 1988,-,>100 µM
CCCCCCCC(=O)NC(CCCN)C(=O)NC(CCCN)C(=O)NC(CCCN)C(=O)NC(CCCN)C(N)=O,ATCC 64028,-,>100 µg/mL
CC(=O)OC12CCC(C(=O)C1)C1C(=O)N(CCCCN3CCN(Cc4ccccc4)CC3)C(=O)C12,DSM 1988,-,>100 µM
O=C(NN1C(=O)/C(=C/c2cc3ccccc3nc2Cl)N=C1c1ccccc1)c1ccccc1O,MTCC 282,-,250 µg/mL
CCCCCCCCCC(=O)NC(CCCN)C(=O)NC(CCCN)C(=O)NC(CCCN)C(N)=O,ATCC 64028,-,50 µg/mL
O/N=C(/COc1cccc(Cl)c1)c1ccccc1,ATCC 16404,72 h,>125 µg/mL
Cc1ccc(N2NOC(=O)C2S(=O)(=O)Nc2nc3ccc(Br)cc3s2)cc1,MTCC 282,-,500 µg/mL
CCCCCCCCCC(=O)NC(CCCN)C(=O)NC(CCCN)C(=O)NC(CCCN)C(=O)NC(CCCN)C(=O)NC(CCCN)C(N)=O,ATCC 64028,-,50 µg/mL
CCCCOc1ccc(-c2csc(NS(=O)(=O)C3C(=O)ONN3c3ccc(C)cc3)n2)cc1,MTCC 282,-,200 µg/mL
CC(=O)OC12CCC(C(=O)C1)C1C(=O)N(CCCN3CCN(c4ccccc4)CC3)C(=O)C12,DSM 1988,-,>100 µM
Cn1ccnc1C(CC(=O)O)c1nccn1C,ATCC 16404,24 h,>512 µg/mL
Cc1ccc(N2NOC(=O)C2S(=O)(=O)Nc2nc3ccc([N+](=O)[O-])cc3s2)cc1,MTCC 282,-,200 µg/mL
CCCCCCCCCCCC(=O)NC(CCCN)C(=O)NC(CCCN)C(=O)NC(CCCN)C(=O)NC(CCCN)C(N)=O,ATCC 64028,-,12.5 µg/mL
COc1ccc(-c2nc3ccccc3c(=O)n2-c2ccc(NS(=O)(=O)C3C(=O)ONN3c3ccc(C)cc3)cc2)cc1,MTCC 282,-,1000 µg/mL
O=C(NN1C(=O)/C(=C/c2cc3ccccc3nc2Cl)N=C1c1ccccc1)c1ccncc1,MTCC 282,-,500 µg/mL
CCOC(=O)c1c(N)oc2c(C)cc(O)c(C)c12,KCTC 1231,-,25 µg/mL
O=C(Nc1nc2ccccc2[nH]1)c1cn[nH]c1C(=O)c1ccccc1,-,-,2.5 µg/mL
CCOc1ccc2nc(NS(=O)(=O)C3C(=O)ONN3c3ccc(C)cc3)sc2c1,MTCC 282,-,500 µg/mL
Cn1cnc(-c2ccccc2)c1,ATCC 16404,24 h,>512 µg/mL
CCCCCCCCCCCCCCCC(=O)NC(CCCN)C(=O)NC(CCCN)C(=O)NC(CCCN)C(=O)NC(CCCN)C(N)=O,ATCC 64028,-,6.25 µg/mL
C[n+]1c[nH]cc1-c1ccccc1,ATCC 16404,24 h,250 µg/mL
O=C(NN1C(=O)/C(=C/c2cc3ccccc3nc2Cl)N=C1c1ccccc1)c1cc(Cl)ccc1Cl,MTCC 282,-,500 µg/mL
O=C(COc1ccccc1)c1ccccc1,ATCC 16404,72 h,>125 µg/mL
C[C@@H](c1ncncc1F)[C@](O)(Cn1cncn1)c1ccc(F)cc1F,21,-,1 µg/mL
Cn1ccnc1C(=O)c1nccn1C,ATCC 16404,24 h,>512 µg/mL
O/N=C(/COc1cccc(F)c1)c1ccccc1,ATCC 16404,72 h,>125 µg/mL
O=C(NN1C(=O)/C(=C/c2cc3ccccc3nc2Cl)N=C1c1ccccc1)c1cccc(Cl)c1,MTCC 282,-,1000 µg/mL

3 of the rows above, restated:

{"compound": "COC(=O)c1c(N)oc2ccc(O)cc12", "strain or isolate": "KCTC 1231", "result": "25 µg/mL"}
{"compound": "O=C(COc1cccc(F)c1)c1ccccc1", "strain or isolate": "ATCC 16404", "conditions": "48 h", "result": ">125 µg/mL"}
{"compound": "CC(=O)OC12CCC(C(=O)C1)C1C(=O)N(CCCN3CCN(c4ccccc4)CC3)C(=O)C12", "strain or isolate": "DSM 1988", "result": ">100 µM"}